Experimental data from article PMC12170906.

Target: T1, Zur (Mycobacterium tuberculosis) (UniProt P9WN85)
T1 sequence (looked up, limits assumed): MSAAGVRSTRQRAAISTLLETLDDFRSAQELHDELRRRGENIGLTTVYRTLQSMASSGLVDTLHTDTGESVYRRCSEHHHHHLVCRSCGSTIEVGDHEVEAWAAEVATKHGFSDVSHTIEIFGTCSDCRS
Assay: EMSA
Details: 500 uM ZnCl2, 400 uM EDTA; recombinant protein; protein details: N-terminal His6 with TEV site, tag removed by TEV

Sequence	binding result
CCTTCCTTCGAAGCTCGGCTTATTGAAAATCATTTTCGACAACAGCTAGGTGGCACTGTA (double strand) [Rv2059 Zur site 60-mer]	binds
GCTAGGTGGCACTGTACCGTCGACGTCGCAATAATGAAAACTGTTATCGATAAGGAGGAC (double strand) [rpmB2 Zur site 60-mer]	binds

For at least one entry, the source does not settle the construct or the ends of the probe. At least one verdict was read from the data and is not stated in words by the source. Tags and fusion partners may be left off the protein sequences shown.
